Pooled drug test results. Numbers come from NIAID ChemDB, via PubChem.

Shared fields: tests in culture; organism: Aspergillus flavus; measure: MIC

Blank or dashed fields: not listed here.

compound | read by | strain | value
O=C/C=C/c1ccccc1 | broth dilution | NRRL 501 | 80 µg/mL
C[C@@H]1OC(OC[C@H]2OC(Oc3c(-c4ccc(O)c(O)c4)oc4cc(O)cc(O)c4c3=O)[C@H](O)[C@@H](O)[C@@H]2O)[C@H](O)[C@H](O)[C@H]1O | - | - | 320 µM
Nc1[nH]c(=O)ncc1F | - | - | 2–64 µg/mL
Oc1cccc2oc(-c3ccccc3)cc(=Nc3ccccc3N=c3cc(-c4ccccc4)oc4cccc(O)c34)c12 | agar diffusion | - | 72 µg/mL
Clc1ccc([Se][Se]c2ccc(Cl)cc2)cc1 | broth dilution | - | >64 µg/mL
CC[C@@H]([C@H](C)O)n1ncn(-c2ccc(N3CCN(c4ccc(OC[C@@H]5CO[C@@](Cn6cncn6)(c6ccc(F)cc6F)C5)cc4)CC3)cc2)c1=O | - | - | 0.125–2 µg/mL
COc1ccc([Se][Se]c2ccc(OC)cc2)cc1 | broth dilution | - | >64 µg/mL
COc1ccc(OC)c(C=O)c1 | agar | NRRL3357 | 1500 µM
COc1ccc(Cn2nc(C3CC3)cc2NC(=O)c2ccc(F)cc2F)cc1 | - | - | 11 µg/mL
C[C@@H]1O[C@@H](OC[C@H]2O[C@@H](Oc3c(-c4ccc(O)cc4)oc4cc(O)cc(O)c4c3=O)[C@H](O)[C@@H](O)[C@@H]2O)[C@H](O)[C@H](O)[C@H]1O | - | - | 320 µg/mL
C[C@@H](c1ncncc1F)[C@](O)(Cn1cncn1)c1ccc(F)cc1F | - | - | 0.125–4 µg/mL
C[C@H]1[C@H](O)[C@@H](C)/C=C/C=C/C=C/C=C/C=C/C=C/C=C/[C@H](O[C@@H]2O[C@H](C)[C@@H](O)[C@H](N)[C@@H]2O)C[C@@H]2O[C@](O)(C[C@@H](O)C[C@@H](O)CC[C@H](O)[C@@H](O)C[C@@H](O)CC(=O)O[C@H]1C)C[C@H](O)[C@H]2C(=O)O | broth dilution | ITCC 4517 | 1.95 µg/mL
COc1ccc(Cn2nc(C3CC3)cc2NC(=O)c2cc([N+](=O)[O-])cc([N+](=O)[O-])c2)cc1 | - | - | 42 µg/mL
C[C@@H](c1nc(-c2ccc(C#N)cc2)cs1)[C@](O)(Cn1cncn1)c1cc(F)ccc1F | - | - | 0.25–16 µg/mL
COc1ccc(Cn2nc(C3CC3)cc2NC(=O)c2ccccc2)cc1 | - | - | 31 µg/mL
CC(C)=CCC/C(C)=C/CO | broth dilution | NRRL 501 | 144 µg/mL
OC(Cn1cncn1)(Cn1cncn1)c1ccc(F)cc1F | broth dilution | - | 25 µg/mL
COc1ccc(Cn2nc(C3CC3)cc2NC(=O)c2ccc(Cl)cc2)cc1 | - | - | 54 µg/mL
O=C/C=C/c1ccccc1 | agar | NRRL3357 | 500 µM

2 of the rows above, restated:

OC(Cn1cncn1)(Cn1cncn1)c1ccc(F)cc1F ; read by: broth dilution ; value: 25 µg/mL
COc1ccc([Se][Se]c2ccc(OC)cc2)cc1 ; read by: broth dilution ; value: >64 µg/mL

Lines come from different laboratories, so protocols vary. Two numbers with a dash give a range or band.